A mixed list of measured activities; the numbers were collected in NIAID ChemDB.

ICn is the concentration giving n% inhibition.

compound,test,organism,strain,protein,read by,measure,dose,result
CCC(=O)Nc1ccc(C)c(Cl)c1,culture,Mycobacterium tuberculosis,H37Rv,-,BACTEC,MIC bound,-,>12.5 µg/mL
Cc1cccc(Sc2ccccc2N)c1,culture,Mycobacterium tuberculosis,H37Rv,-,-,MIC,-,25 µg/mL
Fc1ccc(N2CCCCC2)c(NC(=S)c2ccncc2)c1,host protein,-,-,MINK,kinase activity,inhibition,10 µM,8%
O=C1NNC2(C(=O)N1)c1ccccc1-c1ccccc12,culture,Mycobacterium tuberculosis,H37Rv,-,BACTEC,MIC bound,-,>12.5 µg/mL
CCCCCCCCCCCCOS(=O)(=O)c1ccc(Br)cc1,culture,Mycobacterium tuberculosis,H37Rv,-,-,MIC,-,>100 µg/mL
COc1ccccc1N1CCN(c2cncc(-c3ccc(C(F)(F)F)cc3)n2)CC1,target,Cytomegalovirus,-,UL97 kinase,-,inhibition,10 µM,>15%
CN(C)c1ccc(/C=C(\NC(=O)c2ccccc2)c2nc3c4c(ccc3[nH]2)C(=O)c2ccccc2C4=O)cc1,culture,Mycobacterium tuberculosis,H37Rv,-,resazurin,inhibition,6.25 µg/mL,38%
O=C(SSC(=O)c1ccco1)c1ccco1,culture,Mycobacterium tuberculosis,H37Rv,-,-,MIC,-,50 µg/mL
C=CCc1ccc(O)c(OC)c1,culture,Candida tropicalis,3177,-,turbidity,MIC90,-,490 µg/mL
COc1cc(C(C#N)=Cc2ccccn2)c([N+](=O)[O-])cc1OC,culture,Mycobacterium tuberculosis,H37Rv,-,resazurin,MIC bound,-,>6.25 µg/mL
Fc1cccc(-c2cncc(N3CCN(c4ccccc4F)CC3)n2)c1,target,Cytomegalovirus,-,UL97 kinase,-,IC50,-,<100 µM
FC(F)(F)c1cc(-c2ccc(C3Nc4ccccc4-n4cccc43)o2)cc(C(F)(F)F)c1,culture,Mycobacterium tuberculosis,H37Rv,-,BACTEC,inhibition,12.5 µg/mL,-51%
Cc1cccc(N2CCN(c3cncc(-c4ccc(C(N)=O)cc4)n3)CC2C)c1,target,Cytomegalovirus,-,UL97 kinase,-,inhibition,1 µM,<50%
Oc1ccc(O)c(Br)c1,culture,Mycobacterium tuberculosis,H37Rv,-,-,MIC,-,>100 µg/mL
Cc1ccc(N2CCN(c3cncc(-c4ccc(CO)cc4)n3)CC2)c(C)c1,target,Cytomegalovirus,-,UL97 kinase,-,inhibition,10 µM,>15%
c1ccc(CCCc2ccncc2)cc1,culture,Mycobacterium tuberculosis,H37Rv,-,-,MIC,-,>100 µg/mL
COc1ccc(N2CCN(c3cncc(-c4cccc(C)c4)n3)CC2)cc1OC,target,Cytomegalovirus,-,UL97 kinase,-,inhibition,1 µM,<50%
Cc1cc(=O)c2c(o1)C(=O)c1occc1C2=O,culture,Mycobacterium tuberculosis,H37Rv,-,BACTEC,inhibition,12.5 µg/mL,14%
Nc1cccc2c(Cl)nccc12,culture,Mycobacterium tuberculosis,H37Rv,-,-,MIC,-,>100 µg/mL
CC1(C)OCC2OC3(C(=O)O)OC(C)(C)OC3C2O1,culture,Mycobacterium tuberculosis,H37Rv,-,BACTEC,MIC bound,-,>12.5 µg/mL
Nc1ccc(S(=O)(=O)O)c2cccc(S(=O)(=O)O)c12,culture,Mycobacterium tuberculosis,H37Rv,-,-,MIC,-,>100 µg/mL
CCOc1ccc(-c2cncc(N3CCN(c4ccc(C(C)=O)cc4)CC3)n2)cc1,target,Cytomegalovirus,-,UL97 kinase,-,IC50,-,<100 µM
O=[N+]([O-])c1cc([As](=O)([O-])O)ccc1OCCO.[Na+],culture,Mycobacterium tuberculosis,H37Rv,-,-,MIC,-,>100 µg/mL
C/C1=C\C(C)C(O)C(O)C(=O)C2(C)CNC3=C(O2)C(=O)c2c(cc(C)c(O)c2C1=O)C3=O,culture,Mycobacterium tuberculosis,H37Rv,-,BACTEC,MIC,-,≥12.5 µg/mL
Cc1cc(=S)[nH]c2cc(Cl)ccc12,culture,Mycobacterium tuberculosis,H37Rv,-,-,MIC,-,>100 µg/mL
Cc1ccc(-c2cncc(N3CCN(c4cccc(Cl)c4)CC3)n2)cc1,target,Cytomegalovirus,-,UL97 kinase,-,IC50,-,<100 µM
OCCNc1nc2ccccc2c2ccccc12,culture,Mycobacterium tuberculosis,H37Rv,-,BACTEC,MIC bound,-,>12.5 µg/mL
C=CCc1ccc(OC(=O)/C=C/c2ccccc2)c(OC)c1,culture,Mycobacterium tuberculosis,H37Rv,-,-,MIC,-,>100 µg/mL
N=c1nc(N)nc2c3cc(Br)ccc3nnn12,culture,Mycobacterium tuberculosis,H37Rv,-,BACTEC,MIC bound,-,>12.5 µg/mL
FC(F)(F)c1cc(-c2cncc(N3CCN(c4ccccc4)CC3)n2)cc(C(F)(F)F)c1,target,Cytomegalovirus,-,UL97 kinase,-,inhibition,10 µM,>15%

The first 4 rows once more:

| compound | test | organism | strain | protein | read by | measure | dose | result |
|---|---|---|---|---|---|---|---|---|
| CCC(=O)Nc1ccc(C)c(Cl)c1 | culture | Mycobacterium tuberculosis | H37Rv | - | BACTEC | MIC bound | - | >12.5 µg/mL |
| Cc1cccc(Sc2ccccc2N)c1 | culture | Mycobacterium tuberculosis | H37Rv | - | - | MIC | - | 25 µg/mL |
| Fc1ccc(N2CCCCC2)c(NC(=S)c2ccncc2)c1 | host protein | - | - | MINK | kinase activity | inhibition | 10 µM | 8% |
| O=C1NNC2(C(=O)N1)c1ccccc1-c1ccccc12 | culture | Mycobacterium tuberculosis | H37Rv | - | BACTEC | MIC bound | - | >12.5 µg/mL |

An empty or dashed field is not shown. Inhibition is in % at the dose shown (toxicity tests: loss of growth or viability). MIC bound comes from a single tested concentration. A number after MIC or MFC names an inhibition level or a share of isolates. Neighbouring rows are from separate reports.